According to PMC12501226, “Development of an ultrahigh affinity, trimeric ACE2 biologic as a universal SARS-CoV-2 antagonist” (2025):

Molecular target: SARS-CoV-2 spike HexaPro protein (SARS-CoV-2)

With “T^[change]^D_([change]) ([change] with [change]-V'37C in the trimerization domain and [change]-[chan (from UniProt Q9BYF1 18-615)” the Kd was 0.85 nM and 0.12 nM.

Values joined by “and” are separate entries in the source; they are usually repeats but may differ in a detail not shown here. Identical values can stand only once.
